# Results reported in PubChem BioAssay AID588549 (Broad Institute, 2011).
# The list shows a part of the results, in another mix than the full data. The source made the active and inactive calls. No stated cut-off is given here; in the data, active means inhibition above about 8.5% (passing the limit was not always enough); inconclusive means no clear call, values can overlap the other calls.
# System: Mycobacterium tuberculosis FadD28 fatty-acid-AMP ligase
# Experiment: inhibitors of FadD28 bisubstrate probe binding, primary screen, biochemical, fluorescence polarization, single point (AID 588549)
# Conditions: at 12.5 µM, stronger effect = higher value
row,SMILES,inhibition
1,O=[N+]([O-])c1cc([N+](=O)[O-])c(O)c([N+](=O)[O-])c1.c1ccc(Oc2ccncc2)cc1,inactive: 0.568%
2,CCOC(=O)c1ccc(NP(C)(=O)Oc2ccc(OC)cc2)cc1 (configuration not stated),inactive: -3.3%
3,CCOP(C)(=S)SCC(=O)NC(C)C(=O)O (configuration not stated),inactive: -1.55%
4,CP(=O)(Nc1ccccn1)Oc1ccc(Cl)cc1 (configuration not stated),inactive: 0.518%
5,CP(=O)(Oc1ccccc1)OC(c1ccccc1)C(F)(F)F (configuration not stated),inactive: -2.73%
6,CP(=O)(Nc1ccc(SC(F)(F)F)cc1)Oc1ccc(Cl)cc1 (configuration not stated),inactive: -7.43%
7,Cc1ccc(Nc2c([N+](=O)[O-])cc([N+](=O)[O-])cc2[N+](=O)[O-])cc1,inactive: 0.133%
8,Cc1cccc(C)c1OP(C)(=O)Nc1ccc(SC(F)(F)F)cc1 (configuration not stated),inactive: -0.623%
9,Cc1cc(C)cc(OP(C)(=O)Nc2ccc(SC(F)(F)F)cc2)c1 (configuration not stated),inactive: 1.21%
10,CP(=O)(NC(=O)Nc1ccccc1)Oc1ccccc1 (configuration not stated),inactive: -1.48%
11,CCc1ccc(OP(C)(=O)N2CCN(c3ccc([N+](=O)[O-])cc3)CC2)cc1 (configuration not stated),inactive: -2.27%
12,CP(=S)(Nn1cnnc1)Oc1ccccc1 (configuration not stated),inactive: 0.122%
13,CP(=O)(Nc1ccccc1Br)Oc1ccccc1 (configuration not stated),inactive: -2.62%
14,COc1ccccc1OP(C)(=O)Nc1ccccc1 (configuration not stated),inactive: 0.261%
15,Cc1ccc(NP(C)(=O)Oc2ccccc2)c(C)c1 (configuration not stated),inactive: -1.69%
16,COc1ccccc1OP(C)(=O)Nc1ccc(C)cc1 (configuration not stated),inactive: -0.198%
17,CCOC(=O)c1ccc(NP(C)(=O)Oc2ccccc2)cc1 (configuration not stated),inactive: -1.82%
18,Cc1cc(C)cc(OP(C)(N)=O)c1 (configuration not stated),inactive: -0.528%
19,COc1ccc(OP(C)(=O)Nc2cccc(F)c2)cc1 (configuration not stated),inactive: -0.88%
20,COc1ccccc1OP(C)(=O)Nc1cc(Cl)ccc1C (configuration not stated),inactive: -0.952%
21,O=[N+]([O-])c1cc([N+](=O)[O-])c(Nc2cccnc2)c([N+](=O)[O-])c1,inactive: 0.636%
22,O=[N+]([O-])c1ccc2c(c1)C=Nc1ccccc1O2,inactive: -0.141%
23,Cc1cccc(C)c1OP(C)(N)=O (configuration not stated),inactive: -0.976%
24,CC(C)(C)c1ccc(OP(C)(=O)Nc2ccc(SC(F)(F)F)cc2)cc1 (configuration not stated),inactive: -0.462%
25,CCN(CC)CCCOC(=O)C(O)(c1ccccc1)c1ccccc1,inactive: 0.929%
26,Cc1ccc(C)c(NP(C)(=O)Oc2ccccc2)c1 (configuration not stated),inactive: -1.04%

row,SMILES,inhibition
1,Cc1cc(C)cc(OP(C)(=O)Nc2ccccn2)c1 (configuration not stated),inactive: 0.241%
2,CP(=O)(Nc1cccc(Br)c1)Oc1ccccc1 (configuration not stated),inactive: -3.97%
3,COc1ccccc1OP(C)(=O)Nc1cccc(Br)c1 (configuration not stated),inactive: -3.24%
4,CCOC(=O)c1ccc(NP(C)(=O)Oc2cc(C)cc(C)c2)cc1 (configuration not stated),inactive: -1.83%
5,Cc1cc(C)cc(OP(C)(=O)Nc2ccc(C)cc2C)c1 (configuration not stated),inactive: -3.38%
6,CC1=NCCc2c1[nH]c1ccccc21.O=[N+]([O-])c1cc([N+](=O)[O-])c(O)c([N+](=O)[O-])c1,inactive: -2.44%
7,O=C(O)c1cccc(Nc2c([N+](=O)[O-])cc([N+](=O)[O-])cc2[N+](=O)[O-])c1,inactive: 0.0925%
8,CN1CCCCC1COC(=O)C1(O)c2ccccc2CCc2ccccc21 (configuration not stated),inactive: -1.7%
9,COc1ccccc1OP(C)(=O)Nc1c(C)cccc1C (configuration not stated),inactive: -0.541%
10,CCCOc1ccc(NP(C)(=O)Oc2ccc(Cl)cc2)cc1 (configuration not stated),inactive: 0.418%
11,CP(=O)(Nc1ccc(SC(F)(F)F)cc1)Oc1ccccc1 (configuration not stated),inactive: -0.893%
12,CCOC(=O)C(CC)C1=NC(C)(C)Cc2ccccc21.O=[N+]([O-])c1cc([N+](=O)[O-])c(O)c([N+](=O)[O-])c1 (configuration not stated),inactive: 0.222%
13,CC1=C2N=C(C=C3N=C(C(C)=C4[N-][C@@](C)([C@@H]5N=C1[C@](C)(CCC(=O)NC[C@@H](C)OP(=O)([O-])O[C@H]1[C@@H](O)[C@@H](n6cnc7cc(C)c(C)cc76)O[C@@H]1CO)[C@H]5CC(N)=O)[C@@](C)(CC(N)=O)[C@@H]4CCC(N)=O)[C@@](C)(CC(N)=O)[C@@H]3CCC(N)=O)C(C)(C)[C@@H]2CCC(N)=O.[C-]#N.[Co+3],inactive: -2.82%
14,O=[N+]([O-])c1cc([N+](=O)[O-])c(Nc2nnnn2CCO)c([N+](=O)[O-])c1,inactive: -2.78%
15,O=[N+]([O-])c1cc([N+](=O)[O-])c(-c2cnn(-c3ccccc3)c2)c([N+](=O)[O-])c1,inactive: -16%
16,Cc1nc2ccc3ccccc3c2s1.O=[N+]([O-])c1cc([N+](=O)[O-])c(O)c([N+](=O)[O-])c1,inactive: -1.22%
17,O=[N+]([O-])c1cc([N+](=O)[O-])c(-n2nnc3ccccc32)c([N+](=O)[O-])c1,inactive: -1.46%
18,CN(Cc1cccnc1)C(=O)COc1ccc(Cl)c(Cl)c1.O=[N+]([O-])c1cc([N+](=O)[O-])c(O)c([N+](=O)[O-])c1,inactive: -1.26%
19,CP(=O)(Nc1ccc2c(c1)OCCO2)Oc1ccccc1 (configuration not stated),inactive: -3.13%
20,Cc1ccccc1NP(C)(=O)Nc1ccccc1C,inactive: -2.81%
21,CP(=O)(Nc1ccc(SC(F)(F)F)cc1)Oc1ccc(F)cc1 (configuration not stated),inactive: -3.45%
22,CCOP(C)(=S)SCC(=O)NC(C)(CC)C(=O)O (configuration not stated),inactive: 1.85%
23,O=[N+]([O-])c1ccc(OP2(=O)COCCO2)cc1 (configuration not stated),inactive: 0.2%
24,Cc1cc(-c2cccc3ccccc23)c(C)cn1.O=[N+]([O-])c1cc([N+](=O)[O-])c(O)c([N+](=O)[O-])c1,inactive: -3.33%
25,O=[N+]([O-])c1cc([N+](=O)[O-])c(NCC2CCS(=O)(=O)C2)c([N+](=O)[O-])c1 (configuration not stated),inactive: -2.66%
26,Cc1c(C(c2ccc3c(c2)OCO3)c2c(C)n(C)n(-c3ccccc3)c2=O)c(=O)n(-c2ccccc2)n1C.O=[N+]([O-])c1cc([N+](=O)[O-])c(O)c([N+](=O)[O-])c1,inactive: 0.98%
